The values below come from patent US12448383B2, “Compounds and methods for treatment of viral infections” (priority 2022, dated 2025).

Molecules are shown by their SMILES.

The subject of this test is SARS Coronavirus 2 recombinant with NanoLuc (SARS-CoV2-NLuc) in A549-hACE2 cells. Kind of test: A549-hACE2 SARS-CoV2-NLuc 384-well assay. The test is classed as cell-based. The conditions noted are these: read-out: EC50 SARS CoV2 NanoLuc A549 384, Table D3.

As usually defined, the EC50 is the concentration that produces a half-maximal response. For the compound `N#C[C@@]1(c2ccc3c(N)ncnn23)O[C@H](COC(=O)OC23CC(C(F)(F)F)(C2)C3)[C@@H](O)[C@H]1O` [Compound 139, [(2R,3S,4R,5R)-5-(4-aminopyrrolo[2,1-f][1,2,4]triazin-7-yl)-5-cyano-3,4-dihydroxy-tetrahydrofuran-2-yl]methyl [3-(trifluoromethyl)-1-bicyclo[1.1.1]pentanyl]carbonate], the concentration giving a half-maximal response (EC50) turned out to be 808 nM.
